Compound potency records, mixed from different reports. Data source: NIAID ChemDB in PubChem.

Shared fields: whole-cell or culture tests; agent: Hepatitis C virus

a–b is a range or a potency band. Conditions beyond the fields shown may differ between rows. ECn: concentration that inhibits the pathogen or its effect by n%.

{"SMILES": "Cc1ccc(-n2ncc3c(Nc4ccc(C(F)(F)F)cc4)ncnc32)c(C)c1", "read by": "replicon", "endpoint": "EC50", "cell line": "HUH 9B", "value": "<1 µM"}
{"SMILES": "CCN(CC)c1ccc(C2CC(=O)C3=C(C2)Nc2ccccc2N(C(C)=O)C3c2ccccc2)cc1", "read by": "replicon", "endpoint": "EC50", "cell line": "Huh7", "value": ">32 µM"}
{"SMILES": "CNC(=O)c1c(-c2ccc(F)cc2)oc2cc(N(C)S(C)(=O)=O)c(OCc3ccc(C#N)cc3)cc12", "read by": "replicon", "endpoint": "EC50", "cell line": "Huh7", "value": "<1 µM"}
{"SMILES": "COC(=O)C1=C(C(=O)OC)C2N(CCCCCNC(=O)CCCCCNC(=O)CCCC3SCC4NC(=O)NC43)c3ccccc3[C@@]23CC(=O)N(Cc2ccccc2)C3=N1", "read by": "PCR", "endpoint": "EC50", "cell line": "Huh7.5", "value": "4.8 µM"}
{"SMILES": "C=C[C@@H]1C[C@]1(NC(=O)[C@@H]1C[C@@H](Oc2cc(-c3ccccc3)nc3cc(OC)ccc23)CN1C(=O)[C@@H](NC(=O)OC(C)(C)C)C(C)(C)C)C(=O)NS(=O)(=O)c1cccc(C)c1", "read by": "replicon", "endpoint": "EC50", "cell line": "Huh7", "strain": "1b", "value": "<0.5 µM"}
{"SMILES": "O=[N+]([O-])c1ccc(-c2nc(-c3ccc(C(F)(F)F)cn3)no2)c(Cl)c1", "read by": "replicon", "endpoint": "EC50", "cell line": "Huh7", "value": "4.7 µM"}
{"SMILES": "COc1cc(O[C@@H]2C[C@@H](C(=O)NC3(C(=O)NS(=O)(=O)C4CC4)CC34CC4)N(C(=O)[C@@H](NC(=O)OC(C)(C)C)C(C)(C)C)C2)c2ccc(-c3ccccc3)cc2n1", "read by": "replicon", "endpoint": "EC50", "cell line": "Huh7", "strain": "1b", "value": "<0.5 µM"}
{"SMILES": "Nc1ccc(-c2noc(-c3cc(Br)ccc3O)n2)nc1", "read by": "replicon", "endpoint": "EC50", "cell line": "Huh7", "value": ">32 µM"}
{"SMILES": "COc1ccc(-c2nc(NC(=O)C(C)c3ccccc3)[nH]c2C)cc1S(C)(=O)=O", "read by": "luciferase", "endpoint": "EC50", "cell line": "Huh7", "strain": "1a", "value": "0.378 µM"}
{"SMILES": "COc1ccccc1-c1nnc(-c2ccccc2O)o1", "read by": "replicon", "endpoint": "EC50", "cell line": "Huh7", "value": ">32 µM"}
{"SMILES": "CC1(C)CC(=O)C2=C(C1)Nc1ccc(C(=O)c3ccccc3)cc1NC2c1cccc(Cl)c1", "read by": "replicon", "endpoint": "EC50", "cell line": "Huh7", "value": "15.6 µM"}
{"SMILES": "CCCCCCCC(=O)Oc1cccc(O)c1C(=O)NC(=O)NC1c2ccccc2-c2ccccc21", "read by": "luciferase", "endpoint": "EC50", "cell line": "Huh7.5.1", "mutations": "Wild type", "strain": "JFH1-2a", "value": "0.27 µM"}
{"SMILES": "CCOc1ccc2oc(-c3ccccc3)c(C(=O)NC)c2c1", "read by": "replicon", "endpoint": "EC50", "cell line": "Huh7", "value": ">30 µM"}
{"SMILES": "COC(=O)C1=C(C(=O)OC)C2N(C)c3ccc(OC)cc3[C@@]23C[C@@H](C(=O)OC)N(C(=O)CC(C)C)C3=N1", "read by": "PCR", "endpoint": "EC90", "cell line": "Huh7.5", "value": "92.8 µM"}
{"SMILES": "CC(C)(C)OC(=O)N[C@@H]1CCCCC/C=C\\[C@@H]2C[C@@]2(C(=O)NS(=O)(=O)C2CC2)NC(=O)[C@@H]2C[C@@H](OC(=O)N3Cc4cccc(F)c4C3)CN2C1=O", "read by": "replicon", "endpoint": "EC50", "strain": "1a", "value": "0.002 µM"}
{"SMILES": "CCOC(=O)c1c(CSc2ccccc2)n(C)c2cc(Br)c(O)c(CN(N3CCN(CCO)CC3)N3CCN(CCO)CC3)c12", "read by": "ELISA", "endpoint": "EC50", "cell line": "Huh7", "strain": "Genotype 1A", "value": "22.2 µM"}
{"SMILES": "CCCCc1ccc(Nc2ncnc3c2cnn3-c2ccccc2)cc1", "read by": "replicon", "endpoint": "EC50", "cell line": "HUH 9B", "value": ">10 µM"}
{"SMILES": "O=[N+]([O-])c1ccc(-c2ccc(Cl)cc2)c(COc2ccc(-c3[nH]c4cnccc4c3C3CCCCC3)cc2)c1", "read by": "replicon", "endpoint": "EC50", "strain": "1b", "value": "<100 µM"}
{"SMILES": "CC1(C)CC(=O)C2=C(C1)Nc1cc(C(=O)c3ccccc3)ccc1NC2c1cccc([N+](=O)[O-])c1", "read by": "replicon", "endpoint": "EC50", "cell line": "Huh7", "value": "5.07 µM"}
{"SMILES": "CCOC(=O)c1c(C)n(C)c2cc(F)c(O)cc12", "read by": "ELISA", "endpoint": "EC50", "cell line": "Huh7.3", "value": "9.8 µM"}
{"SMILES": "Cc1ccc(-n2ncc3c(Nc4cccc(C(F)(F)F)c4)ncnc32)c(C)c1", "read by": "replicon", "endpoint": "EC50", "cell line": "HUH 9B", "value": "1–10 µM"}
{"SMILES": "CNC(=O)c1c(-c2ccc(F)cc2)oc2cc(NCc3ccoc3)c(OC(C)C)cc12", "read by": "replicon", "endpoint": "EC50", "cell line": "Huh7", "value": "<1 µM"}
{"SMILES": "O=C1C[C@H](c2ccccc2OCc2ccccc2)CC2=C1[C@H](c1cccc(OC(=O)c3ccc(Cl)cc3)c1)Nc1ccccc1N2", "read by": "replicon", "endpoint": "EC50", "cell line": "Huh7", "value": "3.672 µM"}
{"SMILES": "CCOC(=O)c1c(CSc2ccccc2)n(C)c2cc(-c3cccnc3)c3c(c12)CN(C)CO3", "read by": "ELISA", "endpoint": "EC50", "cell line": "Huh7", "strain": "Genotype 1A", "value": "20.2 µM"}
{"SMILES": "Cc1cn([C@@H]2CNC[C@@H]2OCP(=O)(O)O)c(=O)[nH]c1=O", "read by": "replicon", "endpoint": "EC50", "value": ">50 µM"}
{"SMILES": "Cc1cc(-c2ccccc2O)n(-c2ccccc2[N+](=O)[O-])n1", "read by": "replicon", "endpoint": "EC50", "cell line": "Huh7", "value": ">19 µM"}
{"SMILES": "CCCCc1ccc(Nc2ncnc3c2cnn3-c2cccc(Cl)c2)cc1", "read by": "replicon", "endpoint": "EC50", "cell line": "HUH 9B", "value": "1–10 µM"}
{"SMILES": "C=C[C@@H]1C[C@]1(NC(=O)[C@@H]1C[C@@H](Oc2cc(-c3ccccc3)nc3cc(OC)ccc23)CN1C(=O)[C@@H](NC(=O)OC(C)(C)C)C(C)(C)C)C(=O)NS(=O)(=O)c1cccc(Cl)c1", "read by": "replicon", "endpoint": "EC50", "cell line": "Huh7", "strain": "1b", "value": "<0.5 µM"}
{"SMILES": "C=CCN(c1cc2oc(-c3ccc(F)cc3)c(C(=O)NC)c2cc1OC(C)C)S(C)(=O)=O", "read by": "replicon", "endpoint": "EC50", "cell line": "Huh7", "value": "<1 µM"}
{"SMILES": "Brc1ccc(Cn2ccc3nc(-c4ccccc4)nc-3c2)cc1", "read by": "cytopathic effect", "endpoint": "EC50", "cell line": "Huh 5-2", "strain": "genotype 1b", "value": ">50 µM"}
{"SMILES": "COC(=O)N[C@H](C(=O)N1CCC[C@H]1c1ncc(-c2ccc(-c3cnc([C@@H]4CCCN4C(=O)[C@@H](NC(=O)OC)C(C)C)[nH]3)cc2)[nH]1)C(C)C", "read by": "replicon", "endpoint": "EC90", "cell line": "Huh7", "strain": "1b replicon", "value": "0.001 µM"}
{"SMILES": "CNC(=O)c1c(-c2ccc(F)cc2)oc2cc(N(CCOC(F)(F)F)S(C)(=O)=O)c(OC)cc12", "read by": "replicon", "endpoint": "EC50", "cell line": "Huh7", "value": "<1 µM"}
{"SMILES": "Fc1cccc(-c2cc3cn(Cc4ccc(-c5ccc(C(F)(F)F)cc5C(F)(F)F)nn4)ccc-3n2)c1F", "read by": "replicon", "endpoint": "EC50", "strain": "1b", "value": "<100 µM"}
{"SMILES": "Oc1ccc(Cl)cc1-c1cc(-c2ccccn2)on1", "read by": "replicon", "endpoint": "EC50", "cell line": "Huh7", "value": ">32 µM"}
{"SMILES": "CCCCOc1ccc(N(C(N)=O)c2nc(-c3cccnc3)cs2)cc1C(F)(F)F", "endpoint": "EC50", "value": "<1 µM"}
{"SMILES": "C[C@]1(O)[C@H](n2cnc3c(N)ncnc32)C[C@@](O)(C(F)(F)F)[C@H]1O", "read by": "replicon", "endpoint": "EC50", "cell line": "Huh7", "value": ">50 µM"}
{"SMILES": "CCOC(=O)c1c(CSc2ccccc2)n(C)c2cc(C#N)c(O)c(CN(N3CCN(CCOCCO)CC3)N3CCN(CCOCCO)CC3)c12", "read by": "ELISA", "endpoint": "EC50", "cell line": "Huh7", "strain": "Genotype 1A", "value": "36.9 µM"}
{"SMILES": "CCCCCCCCOc1ccc(N(C(=O)CN(C)C)c2nc(-c3cccnc3)cs2)cc1C(F)(F)F", "endpoint": "EC50", "value": "<1 µM"}
{"SMILES": "Cc1ccc(-n2ncc3c(NC(=O)Nc4ccc(C#N)cc4)ncnc32)c(C)c1", "read by": "replicon", "endpoint": "EC50", "cell line": "HUH 9B", "value": "1–10 µM"}
{"SMILES": "COc1ccc(-c2nc(NC(=O)[C@@H](C)c3ccc(Cl)cc3)[nH]c2C)cc1S(=O)(=O)CCO", "read by": "luciferase", "endpoint": "EC50", "cell line": "Huh7", "strain": "1a", "value": "0.076 µM"}
{"SMILES": "COc1ccc(Cl)cc1Nc1ncnc2c1cnn2-c1ccc(Cl)cc1", "read by": "replicon", "endpoint": "EC50", "cell line": "HUH 9B", "value": "1–10 µM"}
{"SMILES": "CCOC(=O)c1c(CS(=O)(=O)c2ccccc2)n(C)c2cc(-c3cccnc3)c(O)c(CN(C)C)c12", "read by": "ELISA", "endpoint": "EC50", "cell line": "Huh7", "strain": "Genotype 1A", "value": "29.9 µM"}
{"SMILES": "Fc1ccccc1-c1cc2ccn(Cc3ccc(OC(F)(F)F)cc3)cc-2n1", "read by": "replicon", "endpoint": "EC50", "strain": "1b", "value": "<100 µM"}
{"SMILES": "COc1ccc(OC)c(C2Nc3ccc(C(=O)c4ccccc4)cc3NC3=C2C(=O)CCC3)c1", "read by": "replicon", "endpoint": "EC50", "cell line": "Huh7", "value": "11.3 µM"}
{"SMILES": "CCOC(=O)c1c(CSc2ccccc2)n(C)c2cc(C#N)c(O)c(CN(N(C)C)N(C)C)c12", "read by": "ELISA", "endpoint": "EC50", "cell line": "Huh7.3", "value": "33.9 µM"}
{"SMILES": "CC(=O)N1c2ccccc2NC2=C(C(=O)CC(c3ccccc3OCc3ccccc3)C2)C1c1ccccc1", "read by": "replicon", "endpoint": "EC50", "cell line": "Huh7", "value": ">32 µM"}
{"SMILES": "COc1ccc(-c2nc(NC(=O)[C@@H](C)c3ccc(Cl)cc3)[nH]c2C)cc1S(C)(=O)=O", "read by": "luciferase", "endpoint": "EC50", "cell line": "Huh7", "strain": "JFH-1", "value": "0.194 µM"}
{"SMILES": "Fc1ccc(-c2cc(Cn3ccc4cc(-c5ccccc5F)nc-4c3)on2)c(C(F)(F)F)c1", "read by": "replicon", "endpoint": "EC50", "strain": "1b", "value": "<100 µM"}
{"SMILES": "CCOC(=O)c1c(CO)n(C)c2cc(-c3cccnc3)c(O)c(CN(C)C)c12", "read by": "ELISA", "endpoint": "EC50", "cell line": "Huh7.3", "value": "74.8 µM"}
{"SMILES": "C=C[C@@H]1C[C@]1(NC(=O)[C@@H]1C[C@@H](Oc2cc(-c3ccccc3)nc3cc(OC)ccc23)CN1C(=O)[C@@H](NC(=O)OC(C)(C)C)C(C)C)C(=O)NS(=O)(=O)C(C)C", "read by": "replicon", "endpoint": "EC50", "cell line": "Huh7", "strain": "1b", "value": "<0.05 µM"}
{"SMILES": "CCNc1cc2oc(-c3ccc(F)cc3)c(C(=O)NC)c2cc1O", "read by": "replicon", "endpoint": "EC50", "cell line": "Huh7", "value": ">30 µM"}
{"SMILES": "CCN(CC)c1ccc(C2CC(=O)C3=C(C2)Nc2ccccc2N(C(C)=O)C3c2ccc(OC)cc2)cc1", "read by": "replicon", "endpoint": "EC50", "cell line": "Huh7", "value": ">32 µM"}
{"SMILES": "CCCCCOc1ccc(N(C(=O)CC(=O)OC)c2nc(-c3ccc(F)cc3)cs2)cc1C(F)(F)F", "endpoint": "EC50", "value": "<1 µM"}
{"SMILES": "Cc1cc(O)c(-c2c(C)cnn2-c2ccccc2C)cc1C", "read by": "replicon", "endpoint": "EC50", "cell line": "Huh7", "value": ">19 µM"}
{"SMILES": "CCN(CC)c1nc(COc2cc3c(C(=O)NC)c(-c4ccc(F)cc4)oc3cc2N(C)S(C)(=O)=O)ns1", "read by": "replicon", "endpoint": "EC50", "cell line": "Huh7", "value": "<1 µM"}
{"SMILES": "CCOC(=O)c1c(CSc2ccccc2)n(C)c2cc(N=[N-])c3c(c12)CN(C)CO3", "read by": "ELISA", "endpoint": "EC50", "cell line": "Huh7", "strain": "Genotype 1A", "value": "11.9 µM"}
{"SMILES": "O=C1N[C@H]2C(=O)N[C@H]3C(=O)N[C@H](C(=O)N[C@H](C(=O)O)c4cc(O)cc(O)c4-c4cc3ccc4O)[C@H](O)c3ccc(c(Cl)c3)Oc3cc2cc(c3O)Oc2ccc(cc2Cl)C[C@H]2NC(=O)[C@H](NOC(=O)C34CC5CC(CC(C5)C3)C4)c3ccc(O)c(c3)Oc3cc(O)cc(c3)[C@@H]1NC2=O", "read by": "luciferase", "endpoint": "EC50", "strain": "Huh 5-2", "value": "4.6 µM"}
{"SMILES": "C=C[C@@H]1C[C@]1(NC(=O)[C@@H]1C[C@@H](Oc2cc(-c3ccccc3)nc3cc(OC)ccc23)CN1C(=O)[C@@H](NC(=O)c1ccco1)C(C)(C)C)C(=O)NS(=O)(=O)C1CC1", "read by": "replicon", "endpoint": "EC50", "cell line": "Huh7", "strain": "1b", "value": "<0.5 µM"}